Potato spindle tuber viroid, loop 6: variant abundance in plants

The pool varies loop 6 of the PSTVd intermediate strain in the pattern UNNNCGNNNG; wild type is UGACCGCGAG (upper and lower strand joined, each 5' to 3', the first 5 letters being the upper strand, closing pairs included).

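Three N. benthamiana plants were inoculated with the whole mutant pool. Samples came from the inoculated region at 5 days, the leaf margin at 10 and upper systemic leaves at 12.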

Values are reads per thousand in the sample; higher means more abundant, 0 means not found. Each site shows the three plants. "Pool" is the share in the plasmid pool used as inoculum, on the same scale. The inoculated region was read from the minus strand, the other sites from the plus strand. For reference, wild type rose from 20.7 per thousand in the pool to 195, 198, 203 (inoculated region), 629, 591, 734 (leaf margin) and 942, 870, 868 (systemic leaves). With 36,220-57,551 reads a sample, very low values are single reads. Sequences that differ at fixed positions probably stem from PCR or sequencing errors, and defective variants can be carried along by functional ones.

sequence	pool	inoculated region	leaf margin	systemic leaves
UUCGCGGACG	0.209	0.139 0.0539 0.0369	0 0 0	0 0 0
UUCGCGGAGG	0.248	0.0348 0.0898 0.0922	0 0 0	0 0 0
UUCGCGGAGU	0.0131	0 0 0	0 0 0	0 0 0
UUCGCGGAUG	0.183	0.104 0.0359 0.148	0.0276 0 0	0 0.0202 0
UUCGCGGCAG	0.144	0.0869 0.0359 0.111	0 0 0	0 0 0
UUCGCGGCCG	0.196	0.0348 0.0359 0.0922	0 0 0	0 0 0
UUCGCGGCGC	0.0131	0 0 0	0 0 0	0 0 0
UUCGCGGCGG	0.222	0.0869 0.0539 0.0369	0.0276 0 0	0 0.0202 0
UUCGCGGCUG	0.288	0.122 0.144 0.0738	0 0 0	0 0 0
UUCGCGGGAG	0.248	0.0348 0.0180 0.0369	0.0276 0 0.0232	0 0 0
UUCGCGGGCG	0.170	0.139 0.180 0.166	0.0276 0 0.0232	0 0 0
UUCGCGGGGG	0.183	0.0174 0.0359 0.0369	0 0 0	0 0 0
UUCGCGGGUG	0.209	0.122 0.0898 0.0738	0.0276 0 0	0 0 0
UUCGCGGUAG	0.235	0.0695 0.0359 0.0922	0.0276 0 0	0 0 0
UUCGCGGUAU	0.0131	0 0 0	0 0 0	0 0 0
UUCGCGGUCG	0.222	0.122 0.126 0.0738	0 0 0	0 0 0
UUCGCGGUGG	0.366	0.0869 0.108 0.0553	0 0.0757 0	0 0 0
UUCGCGGUUG	0.222	0.0521 0.144 0.0369	0 0 0	0 0 0
UUCGCGUAAG	0.105	0.122 0.0539 0.0553	0.0276 0 0	0 0 0
UUCGCGUACG	0.288	0.104 0.0719 0.0553	0 0 0	0 0 0
UUCGCGUAGG	0.248	0.156 0.0719 0.148	0.0276 0 0	0 0 0
UUCGCGUAUG	0.353	0.139 0.0539 0.129	0.166 0 0	0 0 0
UUCGCGUCAG	0.288	0.0348 0.0719 0.129	0 0 0	0 0 0
UUCGCGUCCG	0.235	0.0521 0.0719 0.0922	0.0552 0 0.0232	0 0 0
UUCGCGUCGG	0.418	0.0174 0.108 0.148	0 0 0.0232	0 0 0.0205
UUCGCGUCUG	0.248	0.104 0.108 0.0738	0 0 0.0232	0 0 0
UUCGCGUGAG	0.288	0.174 0.0539 0.0922	0.0276 0 0	0 0 0
UUCGCGUGCG	0.327	0.139 0.216 0.0738	0 0 0	0 0 0
UUCGCGUGGG	0.288	0.0695 0.0898 0.0738	0 0.0252 0	0 0 0
UUCGCGUGUG	0.235	0.0174 0.126 0.0738	0 0 0.0464	0 0 0
UUCGCGUUAG	0.353	0.156 0.0539 0.129	0 0 0	0 0 0
UUCGCGUUCG	0.248	0.104 0.0539 0.0553	0.0276 0 0	0 0 0
UUCGCGUUGG	0.288	0.0869 0.0359 0.0738	0 0 0	0 0 0
UUCGCGUUUG	0.353	0.0695 0.108 0.0738	0 0 0	0 0 0
UUCGCUACGG	0.0131	0 0 0	0 0 0	0 0 0

Values reported by Wu et al. 2024 (doi:10.1371/journal.ppat.1012142).